Anti-infective test results gathered from many reports (values: NIAID ChemDB through PubChem).

Common to all: tests in culture; species: Mycobacterium smegmatis; measure: MIC

Lines come from different laboratories, so protocols vary. Blank or dashed fields: not listed here.

smiles	strain or isolate	mutations	read by	result
CNC1CN(c2c(F)cn3c(=O)c(C(=O)O)cc(C4CC4)c3c2C)CC1O.Cl	ATCC114			0.78 µg/mL
C1=CC2=NC1=Cc1ccc3[n]1[Ga][n]1c(ccc1=CC1=NC(=C3)C=C1)=C2	LR222			5 µg/mL
COC(=O)c1cccc2c(=O)c3ccccc3oc12	ATCC 607			>32 µg/mL
COc1cc(C)c2c(Oc3cccc(C(F)(F)F)c3)c(OC)cc(NC(C)CCCN)c2n1	mc2155		resazurin	10 µM
C[N+](C)(CCCCCC[N+](C)(C)CCCN1C(=O)c2cccc3cccc(c23)C1=O)CCCN1C(=O)c2cccc3cccc(c23)C1=O	mc2155			12.5 µM
C[C@H](CO)NCCN[C@@H](C)CO	ATCC 607			6 µg/mL
CO[C@H]1/C=C/O[C@@]2(C)Oc3c(C)c(O)c4c(O)c(c(/C=N/N5CCN(C)CC5)c(O)c4c3C2=O)NC(=O)/C(C)=C\C=C\[C@H](C)[C@H](O)[C@@H](C)[C@@H](O)[C@@H](C)[C@H](OC(C)=O)[C@@H]1C			visual reading	8 µg/mL
CC(=O)[C@]1(O)Cc2c(O)c3c(c(O)c2[C@@H](O[C@H]2C[C@H](N)[C@H](O)[C@H](C)O2)C1)C(=O)c1ccccc1C3=O	mc2155			3.125 µM
O=C(O)c1ccc2c(=O)c3ccccc3oc2c1C(=O)O	ATCC 607			>32 µg/mL
NC(N)=N[C@H](C(=O)O)c1ccccc1	mc2155		visual reading	>500 µg/mL
O[C@H](c1cc(C(F)(F)F)nc2c(C(F)(F)F)cccc12)[C@@H]1CCCCN1	mc2155		resazurin	20 µM
Cc1c(N2CC(N)C3(C2)OCCO3)c(F)cn2c(=O)c(C(=O)O)cc(C3CC3)c12.Cl	ATCC114			0.1 µg/mL
OC(c1cc(-c2ccccc2)nc2c1ccc1ccccc12)C1CCCCN1	mc2155			12.5 µM
O=C(O)c1ccc2c(=O)c3cc([N+](=O)[O-])ccc3oc2c1	ATCC 607			>32 µg/mL
Cc1c(N2CC[C@H](NC(=O)[C@H](C)N)C2)c(F)cn2c(=O)c(C(=O)O)cc(C3CC3)c12.Cl	ATCC114			1.56 µg/mL
Cc1nn(-c2ccccc2)c2c1C(c1cn(-c3ccccc3)nc1-c1ccc(Cl)cc1)C1=C(NC(C)(c3cc(O)c(Cl)c(O)c3)NC1=O)O2	NCIM 5138		agar diffusion / agar	70 µg/mL
CC1(C)C=Cc2c(ccc(C(=O)/C=C/c3ccc(O)cc3)c2O)O1	ATCC 700084			9.76 µg/mL
C/C=C(C)/C=C(\C)[C@@H](O)[C@H](C)[C@@H](O)[C@H](O)[C@@H]1C/C=C\C=C\[C@@H](O)C[C@H](O)[C@@H](C)c2nc(cs2)/C=C(\CCCCCC)C(=O)O1			visual reading	16 µg/mL
CC1CN(C(=O)CCCCCCCCCCCCCCCCCNCC(=O)N2CC(C)OP(O)(=S)OC(C)C2)CC(C)OP(O)(=S)O1				23.4 µM
CCCCCCCCCCCCCCCC[N+](C)(C)CC	mc2155			8 µg/mL
C=CC1=C(C)C2=Cc3c(C=C)c(C)c4[n]3[Ga][n]3c(c(C)c(CCC(=O)O)c3=CC3=NC(=C4)C(C)=C3CCC(=O)O)=CC1=N2	LR222			0.4 µg/mL
CCNCC1CCN(c2c(F)cn3c(=O)c(C(=O)O)cc(C4CC4)c3c2C)CC1.Cl	ATCC114			0.39 µg/mL
CC[C@H](COC(C)=O)N(CCN(C(C)=O)[C@@H](CC)COC(C)=O)C(C)=O	ATCC 607			>250 µg/mL
CO[C@H]1/C=C/O[C@@]2(C)Oc3c(C)c(O)c4c(O)c(c(/C=N/N5CCN(C)CC5)c(O)c4c3C2=O)NC(=O)/C(C)=C\C=C\[C@H](C)[C@H](O)[C@@H](C)[C@@H](O)[C@@H](C)[C@H](OC(C)=O)[C@@H]1C			resazurin	>100 µM
CO[C@H]1/C=C/O[C@@]2(C)Oc3c(C)c(O)c4c(O)c(c(/C=N/N5CCN(C)CC5)c(O)c4c3C2=O)NC(=O)/C(C)=C\C=C\[C@H](C)[C@H](O)[C@@H](C)[C@@H](O)[C@@H](C)[C@H](OC(C)=O)[C@@H]1C	NCIM 5138		agar diffusion / agar	480 µg/mL
Cc1nc(-c2ccccc2)sc1-c1csc(Cc2ccc(Cl)cc2)n1			absorbance	>100 µM
Cc1c(N2CCN(c3ccccn3)CC2)c(F)cn2c(=O)c(C(=O)O)cc(C3CC3)c12	ATCC114			0.39 µg/mL
O=C(CCCCCCCCCCCCCCCCCNCC(=O)N1CCOP(=O)(O)OCC1)N1CCOP(=O)(O)OCC1				23.4 µM
CCC(CO)N(CC)CCNC(C)C	ATCC 607			250 µg/mL
CO[C@@H]1C[C@@H](C[C@H]2CC[C@H](C)[C@H]([C@@H](C)C(=O)O)O2)O[C@]2(O[C@](C)([C@H]3CC[C@@](C)([C@@H]4O[C@@H]([C@H]5O[C@@](O)(CO)[C@H](C)C[C@@H]5C)C[C@@H]4C)O3)C[C@H]2C)[C@@H]1C	mc2155		resazurin	2.5 µg/mL
CC(C)(CO)NCCNC(C)(C)CO.Cl.Cl	ATCC 607			60 µg/mL
CN[C@@H]1[C@H](O[C@H]2[C@H](O[C@H]3[C@H](O)[C@@H](O)[C@H](N=C(N)N)[C@@H](O)[C@@H]3N=C(N)N)O[C@@H](C)[C@]2(O)C=O)O[C@@H](CO)[C@H](O)[C@H]1O			resazurin	0.9 µM
CN(C)[C@@H]1C(=O)C(C(N)=O)=C(O)[C@@]2(O)C(=O)C3=C(O)c4c(O)cccc4[C@@](C)(O)[C@H]3C[C@@H]12	PMN1 LFR			8 µg/mL
NC(N)=N[C@H](C(=O)O)c1cc(O)c(CO)c(O)c1	mc2155		visual reading	>500 µg/mL
C=C[C@]1(C)C=C2c3c[nH]c4cccc(c34)C(C)(C)[C@H]2C[C@H]1O				>100 µM
CNc1ccc2oc(C[C@@H]3OC4(CC[C@@H]3C)O[C@H](C(C)C(=O)c3ccc[nH]3)[C@H](C)C[C@H]4C)nc2c1C(=O)O	mc2155	C20 insertion	resazurin	2.5 µg/mL
Cc1c(CN2CCN(C)CC2)cc(-c2ccc(Cl)cc2)n1-c1ccc(Cl)cc1	103599			25 µg/mL
COc1cc2ccnc3c2c(c1OC)NC(=O)C3=O	mc2155		MTT / low oxygen / turbidity	6.25 µg/mL
Cc1nc(-c2ccc(Cl)cc2)sc1-c1csc(-c2cccc(Cl)c2)n1			absorbance	>100 µM
Cc1c(N2C[C@@H](N)C[C@@H]2C)c(F)cn2c(=O)c(C(=O)O)cc(C3CC3)c12.Cl	ATCC114			0.2 µg/mL
Cc1cc(CN2CCN(C)CC2)c(C)n1C1CCCCC1	103599			>64 µg/mL
O=c1cc(-c2ccc(O)c(O)c2-c2c(O)cc(O)c3c(=O)cc(-c4ccc(O)cc4)oc23)oc2cc(O)cc(O)c12	ATCC 700084			>39.06 µg/mL
CC[C@@H](CO)NCCN[C@@H](CC)CO	mc2155		resazurin	2 µM
COC(=O)c1c(C)ccc2c(O)c3c(cc12)C(=O)c1c2c(cc(O)c1C3=O)C1(C)OC(C)(O2)C(O)C(N(C)C)C1O	mc2155			50 µM
COc1ccc(-c2nn(-c3ccccc3)cc2C2C3=C(NC(C)(c4cc(O)c(I)cc4Cl)NC3=O)Oc3c2c(C)nn3-c2ccccc2)cc1	NCIM 5138		agar diffusion / agar	50 µg/mL
CC(CO)NCCNC(C)CO	ATCC 607			15 µg/mL
C/C(=N\Nc1ccc2ccccc2n1)c1ccccc1O	mc2155			>100 µM
Cc1ccc(-c2nc(C)c(-c3csc(-c4ccc(F)cc4)n3)s2)cc1			absorbance	>100 µM
COC(=O)c1cccc2oc3ccccc3c(=O)c12	ATCC 607			>32 µg/mL
C[C@H]1COC2(CCN(c3nc(=O)c4cc(C(F)(F)F)cc([N+](=O)[O-])c4s3)CC2)O1	mc2155		broth dilution / turbidity	0.002 µg/mL
CC(C)c1c(O)cc([C@H](N=C(N)N)C(=O)O)cc1O	mc2155		visual reading	>500 µg/mL
NC(=O)OCC1=C(C(=O)O)N2C(=O)[C@@](O)(NC(=O)Cc3cccs3)[C@H]2SC1	mc2155		resazurin	16 µg/mL
Cc1nc(-c2ccc(F)cc2)sc1-c1csc(Cc2ccc(Cl)cc2)n1			absorbance	>100 µM
CSC(=S)N/N=C(\C)c1ccc(OCc2ccc(F)cc2F)cc1	mc2155		resazurin / absorbance	>100 µM
Cc1ccc2[nH]c3c(C)c4cc[n+](C)cc4c(C)c3c2c1			resazurin / fluorescence	1.4 µg/mL
COC(=O)N[C@H]1[C@@H](C)O[C@@H](O[C@H]2C/C=C(\C)C3C=CC4C([C@@H](C)C[C@H](O[C@@H]5C[C@H](C)[C@H](O)[C@@](O)(C6C[C@@H](O)[C@H](O[C@H]7CC[C@@H](OC)[C@H](C)O7)[C@H](C)O6)C5)[C@@H]4O)[C@]3(C)C(O)=C3C(=O)OC4(CC(C=C(CO)[C@@H]4C)/C=C/2C)C3=O)C[C@]1(C)[N+](=O)[O-]	mc2155			50 µM
CC/C(C)=C(/NC(=O)[C@H](C)NC(=O)[C@@H]1CCC=NN1C(=O)[C@@H](NC(=O)[C@H](C)NC(=O)C(N)(CO)CO)[C@H](C)N)C(=O)N[C@@H](CO)C(=O)O	ATCC 607			12.5 µg/mL
CCCCCCn1c(-c2ccc(Cl)cc2)cc(CN2CCOCC2)c1C	103599			4 µg/mL
NNC(=O)c1ccncc1	mc2155		MTT / low oxygen / turbidity	25 µg/mL
Cc1c(N2C[C@@H](CN)[C@H](C(F)(F)F)C2)c(F)cn2c(=O)c(C(=O)O)cc(C3CC3)c12.Cl	ATCC114			0.05 µg/mL
Cc1nc(-c2ccc(Cl)cc2)sc1-c1csc(Cc2ccc(F)cc2)n1			absorbance	74.64 µM
C[C@@H]1[C@H](O)[C@@H](C)/C=C/C=C/C=C/C=C/C=C/C=C/C=C/[C@H](O[C@@H]2O[C@H](C)[C@@H](O)[C@H](N)[C@@H]2O)C[C@@H]2O[C@](O)(C[C@@H](O)C[C@@H](O)[C@H](O)CC[C@@H](O)C[C@@H](O)CC(=O)O[C@H]1C)C[C@H](O)[C@H]2C(=O)O				0.41 µM
C[C@H]1NCc2cc(-c3ccc4c(=O)c(C(=O)O)cn(C5CC5)c4c3OC(F)F)ccc21	A28315			0.13 µg/mL
CCCC1=C(CC)c2cc3[nH]c(cc4[nH]c(cc5nc(cc1n2)C(CC)=C5CC)c(CC)c4CC)c(CC)c3CC	LR222			10 µg/mL
Cc1ccc2c(=O)c3ccccc3oc2c1	ATCC 607			>32 µg/mL
C1=Cc2cc3ccc(cc4ccc(cc5nc(cc1n2)C=C5)[nH]4)[nH]3	LR222			>40 µg/mL
C/C=C(C)/C=C(\C)[C@@H](O)[C@H](O)[C@H]1OC(=O)/C=C/c2csc(n2)[C@H](C)[C@@H](O)C[C@H](O)/C=C/C=C\C[C@H](O)[C@H]1O			visual reading	>64 µg/mL
CC(CC(=O)N(C)O)CP(=O)(O)O	ATCC 607		broth dilution / turbidity	>250 µM
COc1cc2ccnc3c2c(c1O)N=CC3=N	mc2155		MTT / low oxygen / turbidity	1.5 µg/mL

The last 5 rows once more:

smiles,strain or isolate,mutations,read by,result
Cc1ccc2c(=O)c3ccccc3oc2c1,ATCC 607,,,>32 µg/mL
C1=Cc2cc3ccc(cc4ccc(cc5nc(cc1n2)C=C5)[nH]4)[nH]3,LR222,,,>40 µg/mL
C/C=C(C)/C=C(\C)[C@@H](O)[C@H](O)[C@H]1OC(=O)/C=C/c2csc(n2)[C@H](C)[C@@H](O)C[C@H](O)/C=C/C=C\C[C@H](O)[C@H]1O,,,visual reading,>64 µg/mL
CC(CC(=O)N(C)O)CP(=O)(O)O,ATCC 607,,broth dilution / turbidity,>250 µM
COc1cc2ccnc3c2c(c1O)N=CC3=N,mc2155,,MTT / low oxygen / turbidity,1.5 µg/mL